We go through six compounds from ChEMBL document CHEMBL5034007, “Discovery of Methylene Thioacetal-Incorporated α-RgIA Analogues as Potent and Stable Antagonists of the Human α9α10 Nicotinic Acetylcholine Receptor for the Treatment of Neuropathic Pain” (2021).

Sequences of proteins named here, by UniProt entry; tags and fusion partners are left off. Residues count along the entry.
UniProt Q9UGM1, 23-479 limits assumed: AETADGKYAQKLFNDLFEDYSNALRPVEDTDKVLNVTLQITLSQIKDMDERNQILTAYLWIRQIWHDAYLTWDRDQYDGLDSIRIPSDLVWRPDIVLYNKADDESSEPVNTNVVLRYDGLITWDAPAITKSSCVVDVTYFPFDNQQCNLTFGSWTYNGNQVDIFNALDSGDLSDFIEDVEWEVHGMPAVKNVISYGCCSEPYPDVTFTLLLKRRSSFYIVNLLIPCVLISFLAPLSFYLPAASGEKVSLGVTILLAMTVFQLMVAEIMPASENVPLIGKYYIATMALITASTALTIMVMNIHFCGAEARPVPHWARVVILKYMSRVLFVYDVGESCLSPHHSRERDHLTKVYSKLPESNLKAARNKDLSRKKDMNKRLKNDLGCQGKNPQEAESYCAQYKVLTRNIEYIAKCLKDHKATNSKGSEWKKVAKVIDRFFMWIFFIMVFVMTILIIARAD
UniProt Q9GZZ6, 25-450 limits assumed: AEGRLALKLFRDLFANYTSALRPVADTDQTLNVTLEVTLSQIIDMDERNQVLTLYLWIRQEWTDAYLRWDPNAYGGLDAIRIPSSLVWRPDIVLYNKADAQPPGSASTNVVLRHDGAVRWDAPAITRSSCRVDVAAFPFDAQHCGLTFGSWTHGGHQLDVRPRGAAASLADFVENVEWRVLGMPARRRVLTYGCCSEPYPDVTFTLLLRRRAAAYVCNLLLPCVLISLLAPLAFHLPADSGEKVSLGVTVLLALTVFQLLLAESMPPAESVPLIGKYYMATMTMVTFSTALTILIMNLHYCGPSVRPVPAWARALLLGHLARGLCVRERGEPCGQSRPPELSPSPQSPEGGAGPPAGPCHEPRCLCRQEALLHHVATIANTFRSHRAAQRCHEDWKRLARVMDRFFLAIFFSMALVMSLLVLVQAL
UniProt P30926, 22-498 limits assumed: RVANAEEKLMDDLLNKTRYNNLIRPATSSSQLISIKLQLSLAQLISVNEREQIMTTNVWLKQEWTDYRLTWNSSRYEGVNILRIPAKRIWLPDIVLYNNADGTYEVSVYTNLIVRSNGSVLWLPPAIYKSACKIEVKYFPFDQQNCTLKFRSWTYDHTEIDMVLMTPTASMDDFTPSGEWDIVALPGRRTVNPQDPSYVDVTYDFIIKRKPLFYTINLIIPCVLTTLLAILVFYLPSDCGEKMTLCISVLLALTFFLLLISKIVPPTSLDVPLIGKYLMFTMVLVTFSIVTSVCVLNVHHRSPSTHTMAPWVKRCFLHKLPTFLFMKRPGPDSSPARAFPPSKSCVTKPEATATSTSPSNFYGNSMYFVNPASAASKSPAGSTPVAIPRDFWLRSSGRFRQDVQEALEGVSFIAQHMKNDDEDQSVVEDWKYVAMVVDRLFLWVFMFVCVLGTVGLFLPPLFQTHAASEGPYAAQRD
UniProt Q15822, 27-529 limits assumed: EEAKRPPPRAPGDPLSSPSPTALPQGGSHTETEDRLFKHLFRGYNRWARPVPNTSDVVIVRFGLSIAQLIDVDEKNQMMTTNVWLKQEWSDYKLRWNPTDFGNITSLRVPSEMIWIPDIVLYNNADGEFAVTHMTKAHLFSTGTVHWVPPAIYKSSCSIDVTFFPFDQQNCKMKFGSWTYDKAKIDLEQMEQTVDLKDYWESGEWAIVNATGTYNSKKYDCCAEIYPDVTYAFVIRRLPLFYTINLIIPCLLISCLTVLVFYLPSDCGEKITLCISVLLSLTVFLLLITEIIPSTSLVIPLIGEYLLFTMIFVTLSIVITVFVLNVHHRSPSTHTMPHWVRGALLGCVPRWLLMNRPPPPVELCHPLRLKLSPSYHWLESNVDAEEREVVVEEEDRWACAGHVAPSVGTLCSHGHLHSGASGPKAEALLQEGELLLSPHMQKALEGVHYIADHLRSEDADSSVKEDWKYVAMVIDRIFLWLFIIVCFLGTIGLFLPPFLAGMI
UniProt P17787, 26-502 limits assumed: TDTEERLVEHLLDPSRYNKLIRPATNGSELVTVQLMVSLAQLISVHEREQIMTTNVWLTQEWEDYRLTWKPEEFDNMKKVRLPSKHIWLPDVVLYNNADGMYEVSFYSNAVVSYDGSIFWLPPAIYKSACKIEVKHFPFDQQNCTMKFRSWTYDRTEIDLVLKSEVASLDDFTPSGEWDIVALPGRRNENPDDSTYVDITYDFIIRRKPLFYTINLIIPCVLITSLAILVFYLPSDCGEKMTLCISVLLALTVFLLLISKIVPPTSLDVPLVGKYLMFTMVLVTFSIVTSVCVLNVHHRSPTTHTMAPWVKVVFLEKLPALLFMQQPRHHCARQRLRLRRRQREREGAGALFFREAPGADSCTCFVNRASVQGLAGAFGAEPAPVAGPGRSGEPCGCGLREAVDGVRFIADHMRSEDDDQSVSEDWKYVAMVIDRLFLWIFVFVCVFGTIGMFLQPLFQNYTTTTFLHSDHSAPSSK
UniProt P32297, 32-505 limits assumed: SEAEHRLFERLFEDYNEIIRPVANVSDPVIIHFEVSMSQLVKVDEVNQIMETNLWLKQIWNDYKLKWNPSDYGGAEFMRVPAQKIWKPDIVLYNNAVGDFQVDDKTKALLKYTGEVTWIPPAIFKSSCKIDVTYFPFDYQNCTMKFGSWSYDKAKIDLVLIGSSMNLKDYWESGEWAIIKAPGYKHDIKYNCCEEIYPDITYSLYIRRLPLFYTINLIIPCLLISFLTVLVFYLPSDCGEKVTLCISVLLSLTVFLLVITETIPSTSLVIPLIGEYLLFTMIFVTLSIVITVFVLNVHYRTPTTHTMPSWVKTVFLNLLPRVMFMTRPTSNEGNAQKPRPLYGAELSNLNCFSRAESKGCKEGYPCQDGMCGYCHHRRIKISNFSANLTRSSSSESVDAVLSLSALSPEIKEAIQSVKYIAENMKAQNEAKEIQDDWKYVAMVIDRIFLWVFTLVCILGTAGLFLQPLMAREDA
UniProt Q15825, 26-494 limits assumed: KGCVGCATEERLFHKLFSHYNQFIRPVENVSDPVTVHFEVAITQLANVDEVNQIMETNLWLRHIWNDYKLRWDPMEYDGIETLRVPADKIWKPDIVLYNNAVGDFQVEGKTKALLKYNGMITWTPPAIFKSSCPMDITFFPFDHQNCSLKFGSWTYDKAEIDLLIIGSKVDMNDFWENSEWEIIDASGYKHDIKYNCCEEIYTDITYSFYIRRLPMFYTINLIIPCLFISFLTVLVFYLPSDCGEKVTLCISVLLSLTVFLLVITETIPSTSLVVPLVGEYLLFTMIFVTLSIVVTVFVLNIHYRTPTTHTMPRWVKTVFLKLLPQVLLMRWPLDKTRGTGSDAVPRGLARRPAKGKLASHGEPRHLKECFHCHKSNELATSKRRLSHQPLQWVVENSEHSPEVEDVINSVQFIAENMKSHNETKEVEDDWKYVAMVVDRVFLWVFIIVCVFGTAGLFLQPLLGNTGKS
UniProt P43681, 27-627 limits assumed: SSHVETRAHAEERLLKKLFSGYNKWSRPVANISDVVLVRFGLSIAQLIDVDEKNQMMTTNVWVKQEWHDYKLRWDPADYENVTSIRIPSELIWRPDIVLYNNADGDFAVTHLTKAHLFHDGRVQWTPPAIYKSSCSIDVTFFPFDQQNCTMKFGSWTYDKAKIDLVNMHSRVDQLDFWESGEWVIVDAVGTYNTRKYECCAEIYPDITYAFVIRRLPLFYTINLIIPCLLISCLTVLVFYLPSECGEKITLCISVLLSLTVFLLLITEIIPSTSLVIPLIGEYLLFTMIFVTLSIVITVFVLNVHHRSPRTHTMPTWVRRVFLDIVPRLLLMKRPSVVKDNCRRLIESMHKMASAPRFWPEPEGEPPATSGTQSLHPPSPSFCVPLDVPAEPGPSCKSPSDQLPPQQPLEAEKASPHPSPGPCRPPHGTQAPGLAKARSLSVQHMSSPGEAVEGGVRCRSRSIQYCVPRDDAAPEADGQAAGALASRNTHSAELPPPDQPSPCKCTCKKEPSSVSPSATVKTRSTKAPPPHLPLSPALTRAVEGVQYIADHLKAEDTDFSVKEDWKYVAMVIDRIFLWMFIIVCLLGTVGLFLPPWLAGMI
UniProt P21397, whole entry, looked up: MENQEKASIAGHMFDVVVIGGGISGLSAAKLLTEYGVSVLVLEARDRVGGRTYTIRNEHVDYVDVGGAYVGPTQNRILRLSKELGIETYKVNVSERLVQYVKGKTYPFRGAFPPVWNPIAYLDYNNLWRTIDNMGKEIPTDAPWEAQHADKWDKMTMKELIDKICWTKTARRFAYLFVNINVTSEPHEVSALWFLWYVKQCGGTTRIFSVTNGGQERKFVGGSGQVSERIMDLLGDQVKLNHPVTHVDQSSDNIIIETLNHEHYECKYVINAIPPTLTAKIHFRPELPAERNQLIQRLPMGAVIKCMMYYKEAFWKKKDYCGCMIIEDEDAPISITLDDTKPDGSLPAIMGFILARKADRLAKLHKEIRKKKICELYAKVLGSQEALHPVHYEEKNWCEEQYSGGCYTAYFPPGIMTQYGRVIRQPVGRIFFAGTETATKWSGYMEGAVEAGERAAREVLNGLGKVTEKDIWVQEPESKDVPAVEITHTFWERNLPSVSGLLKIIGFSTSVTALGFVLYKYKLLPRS
UniProt P27338, 2-520 limits assumed: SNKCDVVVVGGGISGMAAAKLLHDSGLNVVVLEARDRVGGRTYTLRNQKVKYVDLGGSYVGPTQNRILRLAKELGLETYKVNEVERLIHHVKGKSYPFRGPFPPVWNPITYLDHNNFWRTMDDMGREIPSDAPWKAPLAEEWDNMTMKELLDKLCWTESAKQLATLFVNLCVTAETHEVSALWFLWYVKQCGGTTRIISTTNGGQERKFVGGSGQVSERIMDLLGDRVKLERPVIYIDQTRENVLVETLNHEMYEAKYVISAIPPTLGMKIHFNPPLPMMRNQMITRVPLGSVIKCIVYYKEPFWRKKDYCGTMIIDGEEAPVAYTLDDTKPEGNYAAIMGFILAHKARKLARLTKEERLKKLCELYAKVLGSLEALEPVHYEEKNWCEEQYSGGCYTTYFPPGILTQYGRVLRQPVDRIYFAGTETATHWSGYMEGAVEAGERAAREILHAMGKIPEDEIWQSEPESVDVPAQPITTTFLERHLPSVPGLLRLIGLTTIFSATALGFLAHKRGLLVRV

The target in data set [1] is Neuronal acetylcholine receptor; alpha9/alpha10 (Homo sapiens, UniProt Q9UGM1+Q9GZZ6). Conditions: oocyte.
Data set [2] in a line: Stability of the compound in PBS at pH 7.4 in presence of reduced glutathione measured after 8 hrs. Conditions: buffer, pH 7.4, 8 h.
The target in data set [3] is Neuronal acetylcholine receptor; alpha2/beta4 (Homo sapiens, UniProt P30926+Q15822). Conditions: oocyte.
Data set [4] concerns the target Neuronal acetylcholine receptor; alpha3/beta2 (Homo sapiens, UniProt P17787+P32297). The note with it: oocyte.
For data set [5], the target named is Neuronal acetylcholine receptor; alpha3/beta4 (Homo sapiens, UniProt P30926+P32297). Conditions: oocyte.
The target in data set [6] is Neuronal acetylcholine receptor; alpha2/beta2 (Homo sapiens, UniProt P17787+Q15822). The note with it: oocyte.
The target of data set [7] is Nicotinic acetylcholine receptor alpha6/alpha3/beta4 (Homo sapiens, UniProt P30926+P32297+Q15825). Conditions: oocyte.
The target in data set [8] is Neuronal acetylcholine receptor; alpha4/beta2 (Homo sapiens, UniProt P17787+P43681). Conditions: oocyte.
In data set [9] the target is Amine oxidase [flavin-containing] A (Homo sapiens, UniProt P21397). In words: Inhibition of MAO-A (unknown origin).
Data set [10] in a line: Stability of the compound in human serum assessed as parent compound remaining measured after 24 hrs by RP-HPLC analysis.
The target of data set [11] is Amine oxidase [flavin-containing] B (Homo sapiens, UniProt P27338). In words: Inhibition of MAO-B (unknown origin).

SMILES strings stand for the structures.

In general, IC50 refers to the midpoint of a concentration-inhibition curve. High values mean weaker potency, low ones greater potency. With `C[C@@H](O)[C@@H]1NC(=O)[C@@H]2CSSC[C@H](NC(=O)[C@H](CCCNC(=N)N)NC(=O)[C@@H]3CCCN3C(=O)[C@H](CC(=O)O)NC1=O)C(=O)N[C@@H](CCCNC(N)=O)C(=O)N[C@@H](Cc1ccc(O)c(I)c1)C(=O)N[C@@H](CCC(N)=O)C(=O)N[C@H](C(=O)N[C@@H](Cc1ccc(O)cc1)C(=O)O)CSSC[C@H](NC(=O)CN)C(=O)N2`, in [1], inhibition was half-maximal at 1.5 nM (IC50). Besides, the Stability in [2] is < 50%.
For `C[C@H](O)[C@H]1NC(=O)[C@@H]2NC(=O)[C@@H](NC(=O)CN)CSSC[C@H](NC(=O)[C@H](CCCNC(=N)N)NC(=O)[C@@H]3CCCN3C(=O)[C@H](CC(O)O)NC1=O)C(=O)N[C@@H](CCCNC(=N)N)C(=O)N[C@@H](Cc1ccc(O)c(I)c1)C(=O)N[C@@H](CCC(N)=O)C(=O)N[C@H](C(=O)NCCC(=O)N[C@@H](CCCNC(=N)N)C(=O)O)CSCS2`, the midpoint of inhibition in [1], the IC50, lay at 2.9 nM.
For `C[C@@H](O)[C@@H]1NC(=O)[C@@H]2NC(=O)[C@H](NC(=O)CN)CSSC[C@H](NC(=O)[C@H](CCCNC(=N)N)NC(=O)[C@@H]3CCCN3C(=O)[C@H](CC(=O)O)NC1=O)C(=O)N[C@@H](CCCNC(N)=O)C(=O)N[C@@H](Cc1ccc(O)c(I)c1)C(=O)N[C@@H](CCC(N)=O)C(=O)N[C@H](C(=O)N[C@@H](Cc1ccc(O)cc1)C(=O)O)CSCS2`, the IC50 in data set [3], in data set [4], in data set [5], in data set [6], in data set [7] and in data set [8] was > 10000 nM throughout. The IC50 in [1] was determined as 6.1 nM.
`C[C@@H](O)[C@@H]1NC(=O)[C@@H]2CSSC[C@@H](C(=O)N[C@@H](Cc3ccc(O)cc3)C(=O)O)NC(=O)[C@H](CCC(N)=O)NC(=O)[C@H](Cc3ccc(O)c(I)c3)NC(=O)[C@H](CCCNC(N)=O)NC(=O)[C@H](CSCS[C@@H](NC(=O)CN)C(=O)N2)NC(=O)[C@H](CCCNC(=N)N)NC(=O)[C@@H]2CCCN2C(=O)[C@H](CC(=O)O)NC1=O` showed an IC50 in data set [1] of 882 nM.
On to `C[C@H](O)[C@H]1NC(=O)[C@@H]2NC(=O)[C@@H](NC(=O)CN)CSSC[C@H](NC(=O)[C@H](CCCNC(=N)N)NC(=O)[C@@H]3CCCN3C(=O)[C@H](CC(O)O)NC1=O)C(=O)N[C@@H](CCCNC(=N)N)C(=O)N[C@@H](Cc1ccc(O)c(I)c1)C(=O)N[C@@H](CCC(N)=O)C(=O)N[C@H](C(=O)N[C@H](CC(=O)N[C@@H](CCCNC(=N)N)C(=O)O)Cc1ccc(O)cc1)CSCS2`, for which the inhibition (INH) in data set [9] is -2.1%; in data set [11], 19.9%. In addition, the Stability in data set [10] was 25%.
Regarding `C[C@@H](O)[C@@H]1NC(=O)[C@@H]2CSSC[C@@H](C(=O)N[C@@H](Cc3ccc(O)cc3)C(=O)O)NC(=O)[C@H](CCC(N)=O)NC(=O)[C@H](Cc3ccc(O)c(I)c3)NC(=O)[C@H](CCCNC(=N)N)NC(=O)[C@H](CSSC[C@H](NC(=O)CN)C(=O)N2)NC(=O)[C@H](CCCNC(=N)N)NC(=O)[C@@H]2CCCN2C(=O)[C@H](CC(=O)O)NC1=O`, in data set [1], the IC50 is 0.5 nM.
